Laboratory results: PubChem BioAssay AID504761 (Drosophila RNAi Screening Center, 2011)

Test: 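Genome-wide fly cell screen for genes dengue virus requires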 (primary screen)
Cells: D.Mel-2 cells from Drosophila
Reagents: long dsRNA against Drosophila genes
Conditions: infection with dengue virus type 2; dose and infection time not stated
Measurement: 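Cells stained for dengue envelope protein and imaged; percent of infected cells per well on duplicate plates, ranked by infection, with stained nuclei counted for cell number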
Scale: infection score: higher = more virus-infected cells; cell count: higher = more cells in the well
Rule for the call: 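Low infection ranks in the two replicates (chance level up to 0.065) followed by a retest with a 1.5-fold or larger significant decrease, p below 0.05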
Meaning of the calls: active = confirmed: knock-down lowers infection; inactive = not picked or not confirmed
In all, the deposit lists about 22,000 reagents; shown is an unselected part of those with a known target gene and a result. In the full data, 116 (0.52%) are marked active. 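Calls depend on retest data that are not deposited; infection was ranked per plate without normalising between plates; the unit of the infection score is not given.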 Raw values are not corrected between plates. No sequences are given here. Not stated in the record: the amount of reagent, the time to read-out.

no.	Target gene	DRSC id	infection score, replicate 1	infection score, replicate 2	cell count, replicate 1	cell count, replicate 2	Outcome
1	CG9123	DRSC20156	1.88	1.41	6692	6825	inactive
2	E(z) (Enhancer of zeste)	DRSC11147	8.7	6.41	6529	6205	inactive
3	E(z) (Enhancer of zeste)	DRSC29388	15	13.5	2956	4612	inactive
4	Strica (Ser/Thr-rich caspase)	DRSC04920	3.23	6.61	6877	6704	inactive
5	apn (apnoia)	DRSC15124	18.4	7.78	5704	6797	inactive
6	alt (aluminum tubes)	DRSC15315	10	6.37	6258	6266	inactive
7	alt (aluminum tubes)	DRSC28347	4.95	7.35	5743	6242	inactive
8	CG7985	DRSC14128	26.3	20.6	5860	5776	inactive
9	Cyp6a14 (retired record)	DRSC07376	20.6	14.5	6546	2446	inactive
10	Cyp6a14 (retired record)	DRSC24704	2.3	0.45	6270	6026	inactive
11	CG6484	DRSC06991	12.2	13.6	3555	4099	inactive
12	CG6484	DRSC28087	17.8	28.1	6412	3743	inactive
13	Deaf1 (Deformed epidermal autoregulatory factor-1)	DRSC11143	6.96	6.27	6628	6575	inactive
14	Deaf1 (Deformed epidermal autoregulatory factor-1)	DRSC22786	1.29	15.2	7113	6687	inactive
15	Deaf1 (Deformed epidermal autoregulatory factor-1)	DRSC25984	2.11	10.1	6628	6279	inactive
16	CG13494	DRSC04139	4.24	5.93	6433	6778	inactive
17	CG13494	DRSC26588	3.59	3.38	5929	5777	inactive
18	Nrk (Neurospecific receptor kinase)	DRSC07480	19.4	12.1	5424	7062	inactive
19	ScsbetaG (Succinyl-coenzyme A synthetase beta subunit, GDP-forming)	DRSC11294	3.46	4.01	5751	5456	inactive
20	ScsbetaG (Succinyl-coenzyme A synthetase beta subunit, GDP-forming)	DRSC26044	2.6	0.61	6317	5910	inactive
21	CG13074	DRSC09957	0.69	4.22	5973	6512	inactive
22	CG32196	DRSC09548	6.86	5.68	6081	5807	inactive
23	Apc (APC-like)	DRSC14114	1.21	0.95	6526	6626	active

Quoted from above for reference:
no.	Target gene	DRSC id	infection score, replicate 1	infection score, replicate 2	cell count, replicate 1	cell count, replicate 2	Outcome
13	Deaf1 (Deformed epidermal autoregulatory factor-1)	DRSC11143	6.96	6.27	6628	6575	inactive
14	Deaf1 (Deformed epidermal autoregulatory factor-1)	DRSC22786	1.29	15.2	7113	6687	inactive
15	Deaf1 (Deformed epidermal autoregulatory factor-1)	DRSC25984	2.11	10.1	6628	6279	inactive
16	CG13494	DRSC04139	4.24	5.93	6433	6778	inactive
17	CG13494	DRSC26588	3.59	3.38	5929	5777	inactive
18	Nrk (Neurospecific receptor kinase)	DRSC07480	19.4	12.1	5424	7062	inactive
19	ScsbetaG (Succinyl-coenzyme A synthetase beta subunit, GDP-forming)	DRSC11294	3.46	4.01	5751	5456	inactive

Further reagents:
no.	Target gene	DRSC id	infection score, replicate 1	infection score, replicate 2	cell count, replicate 1	cell count, replicate 2	Outcome
24	CG34227	DRSC06788	15.3		6381	466	inactive
25	CG34227	DRSC07034	10.2	3.71	6103	6607	inactive
26	Rab39	DRSC17827	32.8	17.5	5297	3878	inactive
27	CG7530	DRSC16255	2.27	2.08	6213	7006	inactive
28	CG7530	DRSC25476	9.05	6.24	6887	6246	inactive
29	Rh2 (Rhodopsin 2)	DRSC16821	13.2	3.49	3801	6396	inactive
30	Rh2 (Rhodopsin 2)	DRSC25598	1.92	1.16	5217	6202	inactive
31	fos28F (retired record)	DRSC03391	2.05	11.3	6390	5254	inactive
32	HmgD (High mobility group protein D)	DRSC04619	31.9	32	6576	4737	inactive
33	HmgD (High mobility group protein D)	DRSC26171	5.65	2.28	6075	6091	inactive
34	CG17490	DRSC03797	5.8	7.18	6864	6987	inactive
35	CG17490	DRSC26780	2.95	5.19	6545	6182	inactive
36	CG16727	DRSC15139	2.15	1.24	6463	6521	inactive
37	CG16727	DRSC26820	7.32	4.57	6641	6953	inactive
38	FMRFaR (FMRFamide Receptor)	DRSC08555	0.28	3.48	6374	6173	inactive
39	Ugt35A1 (UDP-glycosyltransferase family 35 member A1)	DRSC16892	0.35	32.6	564	4922	inactive
40	Ugt35A1 (UDP-glycosyltransferase family 35 member A1)	DRSC25438	4.04	1.24	5916	6391	inactive
41	apolpp (apolipophorin)	DRSC17216	4.15	6.6	6648	6626	inactive
42	CG5665	DRSC11783	21.2	14	4798	4517	inactive
43	Phf7 (PHD finger protein 7)	DRSC23523	15.2	5.24	6628	6222	inactive
44	Cpr12A (Cuticular protein 12A)	DRSC19722	10.3	5.85	5687	6410	inactive
45	CG17715	DRSC11950	14.1	17.8	6110	5067	inactive
46	Drsl5 (Drosomycin-like 5)	DRSC08159	3.17	3.29	6333	5645	inactive
47	Mal-A4 (Maltase A4)	DRSC07236	2.59	12	6475	6896	inactive
48	Mal-A4 (Maltase A4)	DRSC28546	0.72	4.31	552	1321	inactive
49	CG1888	DRSC06797	4.1	9.2	6201	6464	inactive
50	CG18563	DRSC02676	4.95	2.15	5917	6640	inactive
51	CG14109	DRSC10112	0.85	0.31	6448	6840	inactive
52	CG14109	DRSC25337	6.48	11.6	5477	4944	inactive
53	CG13605	DRSC14608	15.5	2.86	5837	6529	inactive
54	CG30349	DRSC06421	10.7		2533	445	inactive
55	CG30349	DRSC06839	36.8		4063	418	inactive
56	CG30349	DRSC28739	1.69		827	465	inactive
57	CG30259	DRSC04164	12.1	16.5	6901	6515	inactive
58	CG30259	DRSC04165	16.7	20.9	5015	4348	inactive
